Anti-infective test results gathered from many reports (values: NIAID ChemDB through PubChem).

Common to all: target-level tests; agent: HIV-1; protein: Tat:TAR/LTR; measure: IC50

Blank or dashed fields: not listed here. ICn is the concentration giving n% inhibition. Neighbouring rows are from separate reports.

smiles | read by | result
CC(=O)NCCN(CCC(=O)NCCN(CCC(=O)NCCN(CCC(=O)NCCN(CCC(=O)NCCN(CCC(=O)NCCC(N)=O)C(=O)[C@@H](N)Cc1ccccc1)C(=O)[C@@H](N)CCCN=C(N)N)C(=O)[C@@H](N)Cc1ccccc1)C(=O)[C@@H](N)Cc1ccccc1)C(=O)[C@@H](N)Cc1ccccc1 | FRET / fluorescence | >2 µM
CN(C)CCn1c2ccccc2c2cc3nc(Cl)ccc3cc21 | FRET | 46 µM
CN1CCN(c2ccc3nc(-c4ccc(OCc5cn(CCCCCn6cc(CCCCc7cn(C[C@H]8O[C@@H](O[C@@H]9[C@@H](O)[C@H](N)C[C@H](N)[C@H]9O[C@H]9O[C@H](CN)[C@@H](O)[C@H](O)[C@H]9N)[C@H](O)[C@@H]8O[C@H]8O[C@@H](CN)[C@@H](O)[C@H](O)[C@H]8N)nn7)nn6)nn5)cc4)[nH]c3c2)CC1 | FRET / binding | 11.6 µM
CC(=O)NCCN(CCC(=O)NCCN(CCC(=O)NCCN(CCC(=O)NCCN(CCC(=O)NCCN(CCC(=O)NCCC(N)=O)C(=O)[C@@H](N)Cc1ccccc1)C(=O)[C@@H](N)CCCN=C(N)N)C(=O)[C@@H](N)Cc1ccccc1)C(=O)[C@@H](N)CCCN=C(N)N)C(=O)[C@@H](N)Cc1ccccc1 | FRET / fluorescence | 0.413 µM
NC(=O)CCNC[C@H](Cc1ccc(O)cc1)NC[C@H](Cc1ccc(O)cc1)NC[C@H](Cc1ccc(O)cc1)NC[C@H](Cc1ccc(O)cc1)NC[C@H](Cc1ccc(O)cc1)NC[C@H](Cc1ccc(O)cc1)NC[C@@H](N)Cc1ccc(O)cc1 | luciferase | 0.5 µM
CCN(CC)CCn1c2ccccc2c2nc3ccc([N+](=O)[O-])cc3cc21 | FRET | 500 µM
NCCNc1c2ccccc2nc2ccccc12 | gel | 800 µM
NCC1O[C@H](O[C@H]2C(N)C[C@@H](N)C(O)[C@H]2O[C@@H]2O[C@H](CNC(=O)[C@@H](N)Cc3cnc[nH]3)[C@H](O[C@H]3O[C@@H](CN)[C@@H](O)C(O)C3N)C2O)C(N)[C@@H](O)[C@@H]1O | RNase H / fluorescence | 1.93 µM
NCCCC[C@H](COC(=O)O)NC(=O)CN(CCCCN)C(=O)OC[C@@H](N)CCCN=C(N)N | nucleotide incorporation / radiometric | 50 µM
NCCN(CCN)CCNC(=O)c1c2ccccc2nc2ccccc12 | gel | >1 µM
CN1CCN(CCCN2c3ccccc3Sc3ccc(C(F)(F)F)cc32)CC1 | gel | >10 µM
NCC(=O)N1CCC[C@H]1C(=O)NCC(N)=O | - | >100 µM
CC(CC(N)=O)NC[C@H](Cc1ccc(O)cc1)NC[C@H](Cc1ccc(O)cc1)NC[C@@H](N)Cc1ccc(O)cc1 | luciferase | 82.8 µM
COc1ccc2nc3cc(Cl)ccc3c(NCCCCN(CCCCN)CCCCN)c2c1 | gel | 0.027 µM
CNC(=O)[C@@H](Cc1ccccc1)NP(=O)(O)OC[C@H]1O[C@@H](n2cc(C)c(=O)[nH]c2=O)C[C@@H]1N=[N+]=[N-] | fluorescence | 0.0028 µM
NC(=O)CCNC[C@H](Cc1ccc(O)cc1)NC[C@H](Cc1ccc(O)cc1)NC[C@H](Cc1ccc(O)cc1)NC[C@H](Cc1ccc(O)cc1)NC[C@H](Cc1ccc(O)cc1)NC[C@H](Cc1ccc(O)cc1)NC[C@H](Cc1ccc(O)cc1)NC[C@@H](N)Cc1ccc(O)cc1 | luciferase | 0.2 µM
Cc1cccc(OCCC[NH3+])c1[N+](=O)[O-] | ELISA | 164.8 µM
C[C@@H](CN[C@H](CN[C@H](CNCCC(N)=O)Cc1ccc(O)cc1)Cc1ccc(O)cc1)NC[C@H](Cc1ccc(O)cc1)NC[C@H](Cc1ccc(O)cc1)NC[C@@H](N)Cc1ccc(O)cc1 | luciferase | 3.2 µM
CC(=O)NCCN(CCC(=O)NCCN(CCC(=O)NCCN(CCC(=O)NCCN(CCC(=O)NCCN(CCC(=O)NCCC(N)=O)C(=O)[C@@H](N)Cc1ccccc1)C(=O)[C@@H](N)CCCN=C(N)N)C(=O)[C@@H](N)Cc1ccccc1)C(=O)[C@@H](N)CCCCN)C(=O)[C@@H](N)CCCCN | FRET / fluorescence | 0.593 µM

For reference, 2 entries again:

CN(C)CCn1c2ccccc2c2cc3nc(Cl)ccc3cc21 ; read by: FRET ; result: 46 µM
CN1CCN(c2ccc3nc(-c4ccc(OCc5cn(CCCCCn6cc(CCCCc7cn(C[C@H]8O[C@@H](O[C@@H]9[C@@H](O)[C@H](N)C[C@H](N)[C@H]9O[C@H]9O[C@H](CN)[C@@H](O)[C@H](O)[C@H]9N)[C@H](O)[C@@H]8O[C@H]8O[C@@H](CN)[C@@H](O)[C@H](O)[C@H]8N)nn7)nn6)nn5)cc4)[nH]c3c2)CC1 ; read by: FRET / binding ; result: 11.6 µM